Data source: PubChem BioAssay AID624099 (ICCB-Longwood, 2012)

Assay: 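Host factors E2 relies on to silence an HPV18 LCR reporter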 (primary screen)
Cell system: human C33A cervical carcinoma cells (HPV-negative) stably expressing BPV1 E2 and an HPV18 LCR luciferase reporter
Knock-down reagent: siRNA pool against human genes, 40 nM
Duration: 72 h
Measurement: 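HPV18 LCR reporter light per well, converted to plate-wise z-scores that exclude control wells, and averaged over triplicate plates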
Direction: mean z-score and z-score: higher = stronger reporter signal, weaker E2 silencing
Call rule: 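Hit if mean z-score reaches 2 and two or more of three replicate z-scores also reach 2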
Here is one part, drawn at random, of about 21,000 reagents. Of all reagents, 497 (2.4%) are marked active. 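Higher z means weaker E2 silencing; only reporter increases were scored, and knock-downs that hurt cell survival may mask genuine repressor factors.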

Gene | mean z-score | z-score, replicate A | z-score, replicate B | z-score, replicate C | outcome
ALDH3B2 (aldehyde dehydrogenase 3 family member B2) | 0.71 | 0.86 | 0.69 | 0.57 | inactive
KIF4A (kinesin family member 4A) | -1.05 | -1.19 | -1.09 | -0.88 | inactive
TMEM273 (transmembrane protein 273) | -1 | -0.96 | -1.13 | -0.9 | inactive
KRT20 (keratin 20) | -0.03 | 0.23 | -0.05 | -0.25 | inactive
VMO1 (vitelline membrane outer layer 1 homolog) | 0.89 | 3.26 | -0.07 | -0.53 | inactive
LTO1 (LTO1 maturation factor of ABCE1) | -0.64 | -0.17 | -0.96 | -0.81 | inactive
DNAJB8 (DnaJ heat shock protein family (Hsp40) member B8) | 0.33 | 0.47 | 0.24 | 0.28 | inactive
ZNF396 (zinc finger protein 396) | -0.2 | -0.18 | -0.1 | -0.34 | inactive
RUNX1 (RUNX family transcription factor 1) | -0.65 | -0.69 | -0.64 | -0.62 | inactive
HEY1 | -0.92 | -0.94 | -1.33 | -0.49 | inactive
RPL35A (ribosomal protein L35a) | -2.23 | -2.17 | -2.31 | -2.2 | inactive
WDR33 (WD repeat domain 33) | -0.01 | -0.01 | 0.04 | -0.07 | inactive
ANKRD31 (ankyrin repeat domain 31) | -1.86 | -1.71 | -1.74 | -2.12 | inactive
CACNA1G (calcium voltage-gated channel subunit alpha1 G) | 0.75 | 0.63 | 0.82 | 0.79 | inactive
LOC401449 (retired record) | 0.37 | 0.68 | 0.47 | -0.04 | inactive
FABP7 (fatty acid binding protein 7) | -1.19 | -0.97 | -1.28 | -1.33 | inactive
SCO2 (synthesis of cytochrome C oxidase 2) | 0.62 | 0.8 | 0.53 | 0.54 | inactive
C8orf15 (retired record) | 0.68 | 0.36 | 0.93 | 0.75 | inactive
ANO6 (anoctamin 6) | -0.09 | 0.25 | -0.19 | -0.32 | inactive
CLSTN1 (calsyntenin 1) | 0.91 | 0.94 | 1.06 | 0.73 | inactive
MBOAT1 (membrane bound glycerophospholipid O-acyltransferase 1) | -0.47 | -0.39 | -0.41 | -0.62 | inactive
FCGR3A (Fc gamma receptor IIIa) | -0.51 | -0.49 | -0.56 | -0.5 | inactive
HLA-E (major histocompatibility complex, class I, E) | -0.54 | -0.58 | -0.46 | -0.58 | inactive
LINGO1 (leucine rich repeat and Ig domain containing 1) | 0.99 | 0.66 | 1.02 | 1.28 | inactive
SCGB1A1 (secretoglobin family 1A member 1) | -0.93 | -0.83 | -0.95 | -1.03 | inactive
WDR49 (WD repeat domain 49) | 0.38 | 0.65 | 0.18 | 0.31 | inactive
APOL1 (apolipoprotein L1) | 3.39 | 3.38 | 3.65 | 3.15 | active
CD86 (CD86 molecule) | 0.52 | 0.61 | 0.39 | 0.54 | inactive
ADCY9 (adenylate cyclase 9) | -0.61 | -0.73 | -0.48 | -0.61 | inactive
ZNF112 (zinc finger protein 112) | 0.61 | 0.44 | 0.49 | 0.9 | inactive
ZBTB37 (zinc finger and BTB domain containing 37) | 1.67 | 1.29 | 1.84 | 1.87 | inactive
PFKFB3 (6-phosphofructo-2-kinase/fructose-2,6-biphosphatase 3) | -1.59 | -1.9 | -1.42 | -1.46 | inactive
ZFPM2 (zinc finger protein, FOG family member 2) | 0.79 | 1.34 | 0.56 | 0.47 | inactive

The list goes on, starting with the last 5 of the part before.
Gene | mean z-score | z-score, replicate A | z-score, replicate B | z-score, replicate C | outcome
ADCY9 (adenylate cyclase 9) | -0.61 | -0.73 | -0.48 | -0.61 | inactive
ZNF112 (zinc finger protein 112) | 0.61 | 0.44 | 0.49 | 0.9 | inactive
ZBTB37 (zinc finger and BTB domain containing 37) | 1.67 | 1.29 | 1.84 | 1.87 | inactive
PFKFB3 (6-phosphofructo-2-kinase/fructose-2,6-biphosphatase 3) | -1.59 | -1.9 | -1.42 | -1.46 | inactive
ZFPM2 (zinc finger protein, FOG family member 2) | 0.79 | 1.34 | 0.56 | 0.47 | inactive
PTCHD4 (patched domain containing 4) | -0.35 | -0.83 | -0.14 | -0.1 | inactive
TEAD2 (TEA domain transcription factor 2) | 1.82 | 1.79 | 1.79 | 1.88 | inactive
SLC25A17 | -0.93 | -0.63 | -1.14 | -1.01 | inactive
BNIP2 (BCL2 interacting protein 2) | -0.98 | -1.03 | -1.14 | -0.76 | inactive
ADGRG1 (adhesion G protein-coupled receptor G1) | 0.33 | 0.53 | 0.06 | 0.38 | inactive
CCT7 (chaperonin containing TCP1 subunit 7) | 1.4 | 1.71 | 1 | 1.49 | inactive
TESK1 (testis associated actin remodelling kinase 1) | -0.15 | 0.08 | -0.43 | -0.11 | inactive
TBC1D10B (TBC1 domain family member 10B) | -1.29 | -1.59 | -1.01 | -1.26 | inactive
RBMS3 (RNA binding motif single stranded interacting protein 3) | 0.69 | 0.86 | 0.64 | 0.58 | inactive
EN2 (engrailed homeobox 2) | 0.98 | 1.04 | 0.79 | 1.11 | inactive
MMP24 (matrix metallopeptidase 24) | 0 | 0.17 | -0.01 | -0.16 | inactive
RFX8 (regulatory factor X8) | -0.29 | -0.19 | -0.09 | -0.6 | inactive
MUSK (muscle associated receptor tyrosine kinase) | -0.15 | -0.31 | 0.25 | -0.39 | inactive
SLC5A8 | -0.69 | -0.79 | -0.45 | -0.83 | inactive
CCDC74A (coiled-coil domain containing 74A) | 0.58 | 0.71 | 0.33 | 0.7 | inactive
GUCA1B (guanylate cyclase activator 1B) | 0.82 | 1.01 | 0.72 | 0.72 | inactive
GGACT (gamma-glutamylamine cyclotransferase) | -1.32 | -0.75 | -1.66 | -1.56 | inactive
IFNAR1 (interferon alpha and beta receptor subunit 1) | -0.15 | -0.24 | -0.18 | -0.04 | inactive
PDE6G (phosphodiesterase 6G) | 1.55 | 1.66 | 1.35 | 1.64 | inactive
SFN (stratifin) | 0.04 | 0.39 | -0.36 | 0.11 | inactive
GNG5 (G protein subunit gamma 5) | 0.23 | 0.41 | 0.1 | 0.2 | inactive
SLC14A2-AS1 (SLC14A2 antisense RNA 1) | -0.74 | -0.81 | -0.6 | -0.81 | inactive
SNURF (SNRPN upstream open reading frame) | -0.05 | 0.06 | 0.02 | -0.23 | inactive
CHRM4 (cholinergic receptor muscarinic 4) | 3.9 | 4.28 | 4.01 | 3.42 | active
